Compound potency records, mixed from different reports. Data source: NIAID ChemDB in PubChem.

All rows: target-level tests; organism: HIV-1; target: Integrase

Rows are shuffled and stem from different studies.

compound,method,endpoint,value
O=C(O)/C(O)=C/C(=O)N(CCCc1ccccc1)Cc1ccc(F)cc1,strand transfer,IC50,<70 µM
Cc1c(F)cc(Br)c(CNC(=O)c2nc3n(c(=O)c2O)CC2(CO)CCC3(NC(=O)C(=O)N(C)C)CC2)c1Br,radiometric,Ki,0.0000061 µM
CN(C(=O)/C=C(\O)C(=O)O)C(Cc1ccc(F)cc1)c1ccc(F)cc1,strand transfer,IC50,<70 µM
COCC12CCC(N(C)C(=O)C(=O)N(C)C)(CC1)c1nc(C(=O)NCc3ccc(F)c(C)c3)c(O)c(=O)n1C2,radiometric,Ki,0.0000022 µM
CC(C)(C)C(=O)c1cc(=O)c(O)c2n1CCN(Cc1ccc(Cl)c(Cl)c1)C2=O,ELISA,IC50,<0.01 µM
CN(C)C(=O)C(=O)N(C)C1CN(CC2CC2)CCn2c1nc(C(=O)NCc1ccc(F)cc1)c(O)c2=O,ELISA,IC50,<10 µM
Cc1ncnn1-c1cc(F)ccc1CNC(=O)c1nc2n(c(=O)c1O)CCOCC21CCN(C(=O)OCc2ccccc2)CC1,binding / radiometric,Ki,0.003–0.05 µM
Cc1cc(CNC(=O)c2nc3n(c(=O)c2O)CC2(N4CCC4)CCC3(NC(=O)C(=O)N(C)C)CC2)ccc1F,radiometric,Ki,0.000006 µM
O=c1ccn2ccn(CCCc3c(Cl)cccc3Cl)c(=O)c2c1O,ELISA,IC50,<0.01 µM
CN(CCC(c1ccc(F)cc1)c1ccc(F)cc1)C(=O)/C=C(\O)C(=O)O,strand transfer,IC50,<70 µM
Cc1cc(CNC(=O)c2nc3n(c(=O)c2O)CC2(F)CCC3(NC(=O)C(=O)N(C)CC(C)C)CC2)ccc1F,radiometric,Ki,0.0000021 µM
CC(=O)N1CCC2(CC1)OCCCn1c2nc(C(=O)NCc2ccc(F)cc2)c(O)c1=O,binding / radiometric,Ki,0.001–0.003 µM
CN(C)C(=O)C(=O)N(C)C12CCC(CO)(CC1)Cn1c2nc(C(=O)NCc2ccc(F)cc2F)c(O)c1=O,radiometric,Ki,0.0000036 µM
CC(C)c1cn(Cc2cccc(Cl)c2)c(=O)c2c(O)c(=O)c(-c3ccccc3)cn12,ELISA,IC50,0.01–0.1 µM
CN1CCn2c(nc(C(=O)NCc3ccc(F)c(Cl)c3)c(O)c2=O)C1(C)C,ELISA,IC50,<10 µM
CC(=O)N1CCC2(CC1)COCCn1c2nc(C(=O)NCc2ccc(F)cc2-n2ncnc2C)c(O)c1=O,binding / radiometric,Ki,0.003–0.05 µM
O=C1c2c(O)c(=O)c(-c3nccs3)cn2CCN1CCCc1ccc(F)cc1,ELISA,IC50,0.01–0.1 µM
CC(=O)N1CCC2(CC1)OCCCn1c2nc(C(=O)NCc2ccc(F)cc2-n2ncnc2C)c(O)c1=O,binding / radiometric,Ki,0.003–0.05 µM
O=c1c(-c2ccccc2O)cn2ccn(Cc3cccc(Cl)c3)c(=O)c2c1O,ELISA,IC50,<0.01 µM
CN(C)C(=O)N1CCC2(CC1)OCCCn1c2nc(C(=O)NCc2ccc(F)cc2)c(O)c1=O,binding / radiometric,Ki,0.001–0.003 µM
O=C(CCc1ccccc1)Nc1cn2ccn(Cc3cccc(Cl)c3)c(=O)c2c(O)c1=O,ELISA,IC50,<0.01 µM
CN1CCn2c(nc(C(=O)NCc3ccc(F)cc3)c(O)c2=O)C1CS(C)(=O)=O,ELISA,IC50,<10 µM
COc1cccc(CN(C)C(=O)/C=C(\O)C(=O)O)c1,strand transfer,IC50,<70 µM
CC1(C)c2nc(C(=O)NCc3ccc(F)cc3)c(O)c(=O)n2CCN1CC#N,ELISA,IC50,<10 µM
Cc1cc(CNC(=O)c2nc3n(c(=O)c2O)CC2(C(=O)NC4CNC4)CCC3(NC(=O)C(=O)N(C)C)CC2)ccc1F,radiometric,Ki,0.0000026 µM

The first 3 rows once more:

compound	method	endpoint	value
O=C(O)/C(O)=C/C(=O)N(CCCc1ccccc1)Cc1ccc(F)cc1	strand transfer	IC50	<70 µM
Cc1c(F)cc(Br)c(CNC(=O)c2nc3n(c(=O)c2O)CC2(CO)CCC3(NC(=O)C(=O)N(C)C)CC2)c1Br	radiometric	Ki	0.0000061 µM
CN(C(=O)/C=C(\O)C(=O)O)C(Cc1ccc(F)cc1)c1ccc(F)cc1	strand transfer	IC50	<70 µM

a–b is a range or a potency band. ICn: concentration for n% inhibition.